Only a part is listed here, and it is no random draw. Some salts or complexes appear as unconnected parts, following the source record. The source made the active and inactive calls. No stated cut-off is given here; in the data, active means inhibition mostly above about 34% (no sharp cut-off); inconclusive means no clear call, values can overlap the other calls; inactive means mostly below about 22%.
Each compound was assayed against dTDP-4-dehydrorhamnose reductase (Mycobacterium tuberculosis (strain ATCC 25618 / H37Rv)) + dTDP-4-dehydrorhamnose 3,5-epimerase (Mycobacterium tuberculosis (strain ATCC 25618 / H37Rv)) (UniProt P9WH09+P9WH11) (assay: M. tuberculosis RmlC/RmlD coupled enzyme inhibitors, primary screen, biochemical, compound mixtures, 384-well, from 1536-well plates (AID 1533)). Conditions: RmlC+RmlD coupled enzyme assay, percent inhibition; primary screen in compound mixtures; at 3.6 µM; stronger effect = higher value.

Amino acid sequences for entries named in this document (tags omitted).
UniProt P9WH09, whole entry, looked up: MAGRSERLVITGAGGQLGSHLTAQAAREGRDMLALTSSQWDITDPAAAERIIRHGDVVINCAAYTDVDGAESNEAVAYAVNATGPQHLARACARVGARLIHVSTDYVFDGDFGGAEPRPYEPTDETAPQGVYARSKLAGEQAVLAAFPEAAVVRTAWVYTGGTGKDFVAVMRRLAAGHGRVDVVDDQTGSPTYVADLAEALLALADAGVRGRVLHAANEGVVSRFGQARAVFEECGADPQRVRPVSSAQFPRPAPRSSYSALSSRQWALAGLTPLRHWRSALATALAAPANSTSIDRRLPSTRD
UniProt P9WH11, whole entry, looked up: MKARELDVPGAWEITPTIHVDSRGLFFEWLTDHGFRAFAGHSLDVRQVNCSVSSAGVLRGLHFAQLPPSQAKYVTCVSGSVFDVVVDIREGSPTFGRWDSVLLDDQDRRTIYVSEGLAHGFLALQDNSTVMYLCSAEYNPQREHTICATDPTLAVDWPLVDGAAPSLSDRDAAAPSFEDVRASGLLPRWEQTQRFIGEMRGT

Compound	inhibition
CCOC(=O)c1ccc(NP(C)(=O)Oc2ccccc2)cc1 (stereo unspecified)	inactive: -9.55%
Cc1cc(C)cc(OP(C)(N)=O)c1 (stereo unspecified)	inactive: -12.9%
CC(C)NC(=O)NP(=O)(Oc1ccccc1)Oc1ccccc1	inactive: 12.5%
COc1ccccc1OP(C)(=O)Nc1cc(Cl)ccc1C (stereo unspecified)	inactive: -10.8%
COc1ccc(OP(C)(=O)Nc2cccc(F)c2)cc1 (stereo unspecified)	inactive: 17.4%
O=C(OC1CN2CCC1CC2)C12CC3CC(CC(C3)C1)C2 (stereo unspecified)	inactive: 0.36%
Cc1cc(=O)[nH]c(N[N+](=O)[O-])n1	inactive: 32.1%
CCN(CC)CCCOC(=O)C(O)(c1ccccc1)c1ccccc1	inactive: -10.4%
COc1ccc2nc(NP(=O)(c3ccccc3)c3ccccc3)sc2c1	inactive: 7.12%
COc1cc(I)ccc1[As](=O)(O)O	inactive: -9.27%
COc1ccc(N/C(=N/P(=O)(N2CCOCC2)N2CCOCC2)N2CCOCC2)cc1	inactive: -5.79%
O=[As](O)(O)c1cccnc1	inactive: 3.9%
COc1cc(C(=O)NCC2(N3CCOCC3)CCCCC2)cc(Cl)c1OC(C)C	inactive: -11.2%
O=C(OC1CN2CCC1CC2)c1ccc(Cl)cc1 (stereo unspecified)	inactive: 12.2%
CCOC(=O)c1ccc(NP(C)(=O)Oc2cc(C)cc(C)c2)cc1 (stereo unspecified)	inactive: -3.2%
Cc1cccc(OCC(=O)OC2CN3CCC2CC3)c1 (stereo unspecified)	inactive: -5.93%
O=[As](O)(c1cccc(O)c1)c1cccc(O)c1	inactive: -11.5%
Cc1ccc(C)c(NP(C)(=O)Oc2ccccc2)c1 (stereo unspecified)	inactive: 9.88%
CCCOP(=S)(Nc1nc(N)cc(=O)[nH]1)OCCC	inactive: 5.83%
Cc1cc(C)cc(OP(C)(=O)Nc2ccccn2)c1 (stereo unspecified)	inactive: 10.9%
CP(=O)(Nc1cccc(Br)c1)Oc1ccccc1 (stereo unspecified)	inactive: -11.5%
Nc1cccc2c([As](=O)(O)O)cccc12	inactive: -6.37%
CS(=O)(=O)c1cc([N+](=O)[O-])c2no[n+]([O-])c2c1	inactive: -10.9%
O=C(O)c1cccc(Nc2c([N+](=O)[O-])cc([N+](=O)[O-])cc2[N+](=O)[O-])c1	inactive: -27.2%

Compound	inhibition
CCOP1(=S)c2c(C)nn(CCC#N)c2N=C(c2ccccc2F)N1C (stereo unspecified)	inactive: 3.95%
O=P(Nc1nccs1)(Oc1ccccc1)Oc1ccccc1	inactive: -5.05%
O=C(O)COc1ccc([As](=O)(O)O)cc1[N+](=O)[O-]	inactive: 11%
Nc1ccccc1[As](=O)(O)c1ccccc1	inactive: 3.41%
NC(=O)Nc1ccc([As](=O)(O)O)cc1	inactive: 2.24%
CC1=NCCc2c1[nH]c1ccccc21.O=[N+]([O-])c1cc([N+](=O)[O-])c(O)c([N+](=O)[O-])c1	inactive: 4.33%
COc1cc(C2NCCC3(OCCO3)C2(C)C)cc(OC)c1OC.O=[N+]([O-])c1cc([N+](=O)[O-])c(O)c([N+](=O)[O-])c1 (stereo unspecified)	inactive: 14%
CC1CCC(C(C)C)C(OP(=O)(Nc2ccccn2)c2ccccc2)C1 (stereo unspecified)	inactive: -10.2%
O=C(/C=C/c1ccccc1)OC1CN2CCC1CC2 (stereo unspecified)	inactive: -0.96%
CCOC(=O)C(CC)C1=NC(C)(C)Cc2ccccc21.O=[N+]([O-])c1cc([N+](=O)[O-])c(O)c([N+](=O)[O-])c1 (stereo unspecified)	inactive: -10.3%
CN1CCCCC1COC(=O)C1(O)c2ccccc2CCc2ccccc21 (stereo unspecified)	inactive: -1.12%
COc1ccccc1OP(C)(=O)Nc1c(C)cccc1C (stereo unspecified)	inactive: 4.54%
O=P1(Nc2ncccn2)COc2ccccc2OC1	inactive: -14.6%
Cc1ccc(OCC(=O)OC2CN3CCC2CC3)cc1 (stereo unspecified)	inactive: 60.1%
O=P1(Nc2ccc(Br)cn2)COc2ccccc2OC1	inactive: 7.87%
CCCOc1ccc(NP(C)(=O)Oc2ccc(Cl)cc2)cc1 (stereo unspecified)	inactive: 8.51%
CP(=O)(Nc1ccc(SC(F)(F)F)cc1)Oc1ccccc1 (stereo unspecified)	inactive: -5.26%
Nc1cccc([As](=O)(O)c2ccccc2)c1	inactive: 6.73%
CCOP(=O)(Nc1ccc(C)cn1)OCC	inactive: 8.08%
O=P1(Nc2ccccn2)COc2ccccc2OC1	inactive: -8.38%
O=[N+]([O-])c1cc([N+](=O)[O-])c(-n2nnc3ccccc32)c([N+](=O)[O-])c1	inactive: 16.8%
Clc1n[nH]nc1-c1nn[nH][15n]1	inactive: -15%
CC(C)(C)C(=O)NC(Sc1ncccn1)C(Cl)(Cl)Cl (stereo unspecified)	inactive: -10%
O=[As](O)(c1ccccc1Br)c1ccccc1Br	inactive: 21.4%

Compound	inhibition
Cc1nc2ccc3ccccc3c2s1.O=[N+]([O-])c1cc([N+](=O)[O-])c(O)c([N+](=O)[O-])c1	inactive: 11.4%
CN(C(=O)Cc1ccc(Cl)c(Cl)c1)[C@@H]1CCCC[C@H]1N1CCCC1	inactive: 3.14%
CP(=O)(Nc1ccc(SC(F)(F)F)cc1)Oc1ccc(F)cc1 (stereo unspecified)	inactive: 3.33%
CC(C)C(=O)NC(Sc1ccccc1)C(Cl)(Cl)Cl (stereo unspecified)	inactive: 7.01%
CCOP(C)(=S)SCC(=O)NC(C)(CC)C(=O)O (stereo unspecified)	inactive: 2.05%
Cc1ccccc1NP(C)(=O)Nc1ccccc1C	inactive: -4.98%
COc1ccc(OP(C)(=O)Nc2cccc(Br)c2)cc1 (stereo unspecified)	inactive: 7.61%
O=P(Nc1ccccn1)(c1ccc(Br)cc1)c1ccc(Br)cc1	inactive: -11.5%
O=P(Nc1nc2ccccc2s1)(c1ccccc1)c1ccccc1	inactive: 1.85%
CN(C)CCOC(=O)C(O)(c1ccccc1)C1CCCCC1 (stereo unspecified)	inactive: 36.8%
COc1ccc(NP(C)(=O)Oc2ccccc2OC)cc1 (stereo unspecified)	inactive: 2.95%
CC(=O)NC(SC(=S)N(C)C)C(Cl)(Cl)Cl (stereo unspecified)	inactive: -3.1%
O=[N+]([O-])c1ncn(CCn2cnc([N+](=O)[O-])n2)n1	inactive: -16.7%
O=[As](O)(c1ccccc1)c1ccc(O)cc1	inactive: 2.85%
Cc1cc(-c2cccc3ccccc23)c(C)cn1.O=[N+]([O-])c1cc([N+](=O)[O-])c(O)c([N+](=O)[O-])c1	inactive: -5.14%
O=[N+]([O-])c1cc([N+](=O)[O-])c(NCC2CCS(=O)(=O)C2)c([N+](=O)[O-])c1 (stereo unspecified)	inactive: 5.43%
C(Cc1nn[nH]n1)Cc1nn[nH]n1	inactive: 3.98%
Nc1ccc([As](=O)(O)c2ccc([N+](=O)[O-])cc2)cc1	inactive: -1.48%
O=C(OC1CN2CCC1CC2)c1cccc(Cl)c1 (stereo unspecified)	inactive: -10.9%
O=C(NC1CCS(=O)(=O)C1)NP(=S)(Oc1ccccc1)Oc1ccccc1 (stereo unspecified)	inactive: 7.83%
CCNC(=S)/N=C(\N)N[N+](=O)[O-]	inactive: 3.08%
c1ccc(-c2nn[nH]n2)c(-c2nn[nH]n2)c1	inactive: -1.64%
Cc1ccc(NP(=O)(Oc2cccc(C)c2)Oc2cccc(C)c2)nc1	inactive: 10.7%
COc1ccc(OP(C)(=O)Nc2ccc(SC(F)(F)F)cc2)cc1 (stereo unspecified)	inactive: -7%

Compound	inhibition
COC(=O)c1cc2c(s1)N=C(c1ccccc1)N(C)P2(=O)N1CCOCC1 (stereo unspecified)	inactive: -1.92%
Cc1ccc(OP(=O)(Nc2ccccn2)Oc2ccc(C)cc2)cc1	inactive: 8.28%
CCC(=O)N1C2C3N(C(=O)CC)C1C1N(C(=O)CC)C(C(N1C(=O)CC)N3C(=O)CC)N2C(=O)CC	inactive: -4.24%
CCN(CC)CCCOC(=O)C(O)(c1ccccc1)C1CCCCC1 (stereo unspecified)	inactive: -16.7%
Cc1ccccc1OP(=O)(Nc1ccccn1)Oc1ccccc1C	inactive: 1.51%
O=c1c2cc([N+](=O)[O-])ccc2[nH]c2c([N+](=O)[O-])cc([N+](=O)[O-])cc12	inactive: -14.5%
CCCCCOc1ccc(NP(C)(=O)Oc2ccc(Cl)cc2Cl)cc1 (stereo unspecified)	inactive: 17.1%
CN(C)C(=O)Oc1noc2ccccc12	inactive: -9.3%
O=P1(Nc2nc3ccc(Cl)cc3s2)COc2ccccc2O1 (stereo unspecified)	inactive: 2.7%
CC(C)(C)C(=O)NC(Sc1ccccc1)C(Cl)(Cl)Cl (stereo unspecified)	inactive: 6.82%
O=C(OC1CN2CCC1CC2)c1ccc([N+](=O)[O-])cc1 (stereo unspecified)	inactive: -4.13%
O=C(OCCN1CCN(CCOCc2ccccc2)CC1)C(O)(c1ccccc1)c1ccccc1	inactive: -3.54%
COc1ccc2c(c1O)-c1c(O)c(OC)cc3c1[C@H](C2)[N+](C)(C)CC3.O=[N+]([O-])c1cc([N+](=O)[O-])c([O-])c([N+](=O)[O-])c1[O-]	inactive: 3.6%
CC(=O)Nc1ccc(Oc2c([N+](=O)[O-])cc([N+](=O)[O-])cc2[N+](=O)[O-])cc1	inactive: -6.58%
NC(=O)c1cc([N+](=O)[O-])cc([N+](=O)[O-])c1N	inactive: -4.42%
COc1ccccc1OP(C)(=O)Nc1ccc(Br)cc1 (stereo unspecified)	inactive: -4.3%
Cc1ccc(N/C(=N/P(=O)(N2CCOCC2)N2CCOCC2)N2CCOCC2)cc1	inactive: -7.14%
COc1ccccc1OP(=O)(Nc1ccc(C)cn1)Oc1ccccc1OC	inactive: -3.2%
Cc1ccc(OP(=O)(Nc2nccs2)Oc2ccc(C)cc2)cc1	inactive: -1.96%
Nc1cc(N)c2nonc2c1[N+](=O)[O-]	inactive: -7.9%
Cc1c(NP(C)(=O)Oc2ccc(C(C)C)cc2)c(=O)n(-c2ccccc2)n1C (stereo unspecified)	inactive: 3.12%
O=[N+]([O-])c1cc([N+](=O)[O-])c(Nc2ccccn2)c([N+](=O)[O-])c1	inactive: 2.27%
Oc1ccccc1CNc1ccccn1	inactive: 11.9%
Cc1c2non([O-])c-2c(C)[n+](=O)[n+]1[O-]	inactive: 1.6%
